# Fitness effects across NS2B and the NS3 protease domain of Zika virus

Source: Ni et al. 2025 (doi:10.1038/s41467-025-63602-z), supplementary data.

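Mutant virus pools were grown in human Huh-7.5 cells. The effect is the change in frequency of a mutant, normalised to wild type, as a mean of three replicate libraries (two for positions 207-308).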

Protein: NS2B and the protease part of NS3 of Zika virus strain MR766. Positions count along the chain below; NS2B spans 2-131 and NS3 starts at 132.
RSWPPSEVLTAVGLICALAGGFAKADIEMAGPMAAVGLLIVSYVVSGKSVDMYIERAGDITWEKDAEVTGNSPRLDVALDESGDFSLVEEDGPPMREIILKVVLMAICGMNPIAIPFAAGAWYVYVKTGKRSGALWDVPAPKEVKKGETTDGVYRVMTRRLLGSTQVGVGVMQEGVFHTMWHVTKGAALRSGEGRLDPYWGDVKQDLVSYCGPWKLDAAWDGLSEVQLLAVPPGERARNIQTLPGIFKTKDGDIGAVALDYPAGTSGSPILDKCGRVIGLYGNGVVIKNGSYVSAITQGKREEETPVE

Values are log2 effects on growth: 0 is wild type, lower means poorer growth.
Rows are sites, columns the new residue; wt marks the wild-type residue.
An asterisk is a stop codon; stop codons read about -7, near the floor of the assay.
The authors count -1 or higher as tolerated. Position 1 is the last residue of NS2A.
Values above 0 are not proof of better growth: six high scorers were tested one by one, five grew less well than wild type and one about as well.
Positions 1-103, 104-206 and 207-308 were made and measured as separate libraries.

site,G,A,V,L,I,M,F,W,Y,C,P,S,T,N,Q,D,E,K,R,H,*
T10,-0.40,-2.60,-1.93,-3.32,-3.83,-4.75,-5.28,-4.03,-5.59,-0.57,-6.39,-0.53,wt,-3.66,-2.26,-4.96,-3.16,-5.99,-5.72,-3.22,-6.46
A11,-1.87,wt,-3.41,-5.53,-5.84,-3.98,-5.80,-4.91,-5.91,-1.39,-5.92,-0.42,-4.66,-6.23,-5.78,-5.81,-6.01,-5.56,-6.70,-6.28,-7.28
V12,-3.33,-1.97,wt,-3.69,-2.51,-3.01,-5.81,-5.09,-5.39,-0.55,-6.72,-1.10,0.69,-5.89,-5.49,-6.22,-6.31,-5.85,-6.86,-5.60,-7.68
G13,wt,-6.75,-5.92,-7.27,-5.82,-6.00,-5.81,-5.33,-5.52,-3.39,-7.03,-7.02,-7.17,-6.10,-5.79,-5.93,-5.47,-5.98,-7.11,-5.74,-7.92
L14,-5.10,-4.82,-0.24,wt,-0.73,-1.18,-2.51,-4.42,-5.61,-1.33,-5.50,-6.62,-0.67,-5.85,-5.83,-5.42,-5.00,-5.81,-7.65,-5.62,-7.26
I15,-6.77,-4.90,-0.32,-1.10,wt,-0.43,-5.64,-4.95,-6.50,-0.54,-7.57,-6.63,-0.98,-7.48,-6.19,-6.52,-6.50,-7.31,-7.91,-6.83,-8.07
C16,-5.18,-3.10,-6.58,-6.03,-6.45,-5.41,-4.53,-7.24,-6.93,wt,-7.64,-2.23,-3.50,-6.91,-6.26,-6.53,-5.60,-6.28,-8.53,-6.80,-8.03
A17,-1.22,wt,-2.35,-2.91,-2.37,0.76,-4.79,-5.73,-5.22,-0.19,-8.18,0.03,-0.14,-5.65,-4.45,-5.39,-3.29,-5.70,-6.93,-5.88,-7.41
L18,-3.19,-3.05,-1.72,wt,-1.79,-1.23,-5.83,-6.35,-6.28,-3.18,-6.93,-4.43,-2.64,-6.19,-6.55,-6.22,-6.54,-6.77,-8.52,-7.19,-8.22
A19,-0.89,wt,-3.84,-3.95,-4.93,-4.14,-1.88,-6.26,-6.12,-0.62,-8.35,-1.81,-4.44,-5.70,-6.47,-6.78,-6.81,-6.75,-8.18,-5.75,-7.89
G20,wt,-0.49,-6.98,-7.65,-5.99,-3.40,-6.49,-6.49,-5.86,-5.41,-7.12,-0.96,-2.49,-4.84,-5.22,-5.44,-3.68,-5.42,-5.15,-5.89,-4.60
G21,wt,-0.17,-5.16,-7.11,-5.38,-6.55,-1.77,-4.66,-0.54,-1.70,-6.96,-0.73,-3.49,-3.41,-3.99,-5.87,-7.02,-6.62,-8.36,-5.25,-7.82
F22,-4.36,-0.84,-0.15,0.43,-0.81,1.42,wt,-2.92,-2.91,0.12,-5.80,-1.29,-0.75,-5.77,-2.61,-6.69,-6.21,-6.14,-8.01,-5.71,-7.69
A23,-1.55,wt,-0.33,-3.94,-3.56,-2.06,-5.21,-5.87,-5.77,0.35,-2.95,-0.71,0.49,-1.62,0.09,-3.82,-2.54,-5.03,-5.47,-0.76,-6.70
K24,-3.89,-1.64,-6.45,-7.48,-5.91,-3.94,-5.44,-5.84,-5.40,-3.05,-6.47,-4.44,-3.62,-0.73,-1.32,-5.46,-2.48,wt,-1.08,0.64,-7.63
A25,-4.53,wt,1.16,-0.32,0.17,1.07,-1.86,-1.94,-1.87,0.85,-4.90,-2.72,-1.48,-4.66,-3.80,-5.30,-6.52,-5.14,-4.15,-3.81,-7.51

31 of these entries, quoted again:

{"mutation": "G21T", "log2 effect": -3.49}
{"mutation": "G13D", "log2 effect": -5.93}
{"mutation": "F22I", "log2 effect": -0.81}
{"mutation": "L14*", "log2 effect": -7.26}
{"mutation": "L14N", "log2 effect": -5.85}
{"mutation": "F22T", "log2 effect": -0.75}
{"mutation": "C16Q", "log2 effect": -6.26}
{"mutation": "L18Q", "log2 effect": -6.55}
{"mutation": "F22D", "log2 effect": -6.69}
{"mutation": "G20I", "log2 effect": -5.99}
{"mutation": "F22P", "log2 effect": -5.80}
{"mutation": "A19P", "log2 effect": -8.35}
{"mutation": "T10C", "log2 effect": -0.57}
{"mutation": "C16D", "log2 effect": -6.53}
{"mutation": "C16S", "log2 effect": -2.23}
{"mutation": "F22C", "log2 effect": 0.12}
{"mutation": "A19Y", "log2 effect": -6.12}
{"mutation": "A19C", "log2 effect": -0.62}
{"mutation": "V12K", "log2 effect": -5.85}
{"mutation": "G13A", "log2 effect": -6.75}
{"mutation": "A23M", "log2 effect": -2.06}
{"mutation": "L14T", "log2 effect": -0.67}
{"mutation": "A23F", "log2 effect": -5.21}
{"mutation": "F22S", "log2 effect": -1.29}
{"mutation": "A23I", "log2 effect": -3.56}
{"mutation": "G21A", "log2 effect": -0.17}
{"mutation": "G21C", "log2 effect": -1.70}
{"mutation": "A17Q", "log2 effect": -4.45}
{"mutation": "V12M", "log2 effect": -3.01}
{"mutation": "V12Q", "log2 effect": -5.49}
{"mutation": "I15G", "log2 effect": -6.77}